Measured values from several laboratories, pooled; numbers as filed in NIAID ChemDB.

Common to all: whole-cell or culture tests; agent: Reovirus; strain: TYPE 1; cells: VERO; endpoint: EC50

ECn: concentration that inhibits the pathogen or its effect by n%.

{"smiles": "Nc1ncnc2c1ccn2[C@@H]1C[C@H](O)[C@@H](O)[C@H]1O", "value": ">0.7 µg/mL"}
{"smiles": "CC1(C)[C@@H](CCO)C[C@H]1n1cnc2c(N)nc(N)nc21", "method": "cytopathic effect", "value": ">400 µg/mL"}
{"smiles": "O=c1ccn([C@@H]2C[C@H](CO)C[C@H]2CO)c(=O)[nH]1", "value": ">100 µg/mL"}
{"smiles": "N#CC1=CN(COCCO)S(=O)(=O)N=C1N", "value": ">400 µg/mL"}
{"smiles": "CC=NC(=N)c1nc(-c2cccc(C)c2)n(C/C=C/c2ccccc2)n1", "method": "cytopathic effect", "value": ">10 µg/mL"}
{"smiles": "Cc1cccn2c(C3SCCS3)cnc12", "value": ">1000 µM"}
{"smiles": "CC1(C)[C@@H](CCO)C[C@H]1n1nnc2c(Cl)nc(N)nc21", "method": "cytopathic effect", "value": "200 µg/mL"}
{"smiles": "CC=NC(=N)c1nc(-c2cccc(OC)c2)n(COCCO)n1", "method": "cytopathic effect", "value": "70 µg/mL"}
{"smiles": "CC(=O)OCCOCN1C(C)=CC(N)=[N+](c2ccccc2)S1(=O)=O", "value": ">400 µg/mL"}
{"smiles": "Nc1ncnc2c1ncn2[C@H]1C[C@@H](O)[C@H](O)[C@@H]1O", "value": "7 µg/mL"}
{"smiles": "Cc1ccn2c(C3OCCO3)cnc2c1", "value": ">1000 µM"}
{"smiles": "CC(=O)OCCOCN1C=CC(=O)NS1(=O)=O", "value": ">400 µg/mL"}
{"smiles": "Cc1cn(CCCC(O)CF)c(=O)[nH]c1=O", "method": "cytopathic effect", "value": ">400 µg/mL"}
{"smiles": "Cc1ccn2c(C3OCCS3)cnc2c1", "value": ">1000 µM"}
{"smiles": "CC=NC(=N)c1nc(-c2ccc(C)cc2)n(COCCO)n1", "method": "cytopathic effect", "value": ">100 µg/mL"}
{"smiles": "CC(=O)OCCOCN1C=CC(=O)N(COCCO)S1(=O)=O", "value": ">400 µg/mL"}
{"smiles": "Nc1ccn(C(CF)CCCO)c(=O)n1", "method": "cytopathic effect", "value": ">400 µg/mL"}
{"smiles": "CC=NC(=N)c1nc(-c2cccc(OC)c2)n(Cc2ccccc2)n1", "method": "cytopathic effect", "value": ">10 µg/mL"}
{"smiles": "CC(C)Nc1ncnc2c1ncn2C1C[C@H](CO)[C@@H](CO)C1", "value": ">100 µg/mL"}
{"smiles": "CC1=CC(=O)N(c2ccccc2)S(=O)(=O)N1COCCO", "value": ">400 µg/mL"}
{"smiles": "Nc1ncnc2c1ncn2CCCC(O)CF", "method": "cytopathic effect", "value": ">400 µg/mL"}
{"smiles": "C=C(N=CC)c1nc(-c2cccc(OC)c2)n(C2O[C@H](CO)[C@@H](O)[C@H](O)[C@H]2O)n1", "method": "cytopathic effect", "value": ">200 µg/mL"}
{"smiles": "OC[C@H]1CC(n2cnc3c(NC4CC4)ncnc32)C[C@@H]1CO", "value": ">100 µg/mL"}
{"smiles": "CC=NC(=N)c1nc(-c2ccc(C)cc2)n(C/C=C/c2ccccc2)n1", "method": "cytopathic effect", "value": ">10 µg/mL"}
{"smiles": "CC1(C)[C@@H](CCO)C[C@H]1n1nnc2c(N)nc(N)nc21", "method": "cytopathic effect", "value": ">200 µg/mL"}

The last 3 rows once more:

smiles | method | value
OC[C@H]1CC(n2cnc3c(NC4CC4)ncnc32)C[C@@H]1CO | - | >100 µg/mL
CC=NC(=N)c1nc(-c2ccc(C)cc2)n(C/C=C/c2ccccc2)n1 | cytopathic effect | >10 µg/mL
CC1(C)[C@@H](CCO)C[C@H]1n1nnc2c(N)nc(N)nc21 | cytopathic effect | >200 µg/mL

An empty or dashed field is not shown. Neighbouring rows are from separate reports.